The chains behind the UniProt entries cited, without tags or fusion partners. Where a name states a change or a piece, a line headed by the entry shows the natural chain unless it says otherwise.
UniProt Q9H3N8: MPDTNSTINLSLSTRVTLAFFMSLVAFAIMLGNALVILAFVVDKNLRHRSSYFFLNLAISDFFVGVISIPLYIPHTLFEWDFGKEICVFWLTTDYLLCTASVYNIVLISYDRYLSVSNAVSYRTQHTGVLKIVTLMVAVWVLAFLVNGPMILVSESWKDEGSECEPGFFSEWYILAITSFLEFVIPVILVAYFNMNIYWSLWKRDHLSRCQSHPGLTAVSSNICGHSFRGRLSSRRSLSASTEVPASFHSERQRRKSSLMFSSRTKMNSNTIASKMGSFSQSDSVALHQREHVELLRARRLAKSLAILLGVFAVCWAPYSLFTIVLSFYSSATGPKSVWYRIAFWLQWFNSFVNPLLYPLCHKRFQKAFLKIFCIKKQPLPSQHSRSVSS

In ChEMBL document CHEMBL4602733 (J Med Chem, 2020):

Assays:
Assay in all cases: biochemical
Histamine H4 receptor [1] = target: T1, Histamine H4 receptor (Homo sapiens, UniProt Q9H3N8)
Histamine H4 receptor [2] = target: T1, Histamine H4 receptor; remark: listed apart in the source
Histamine H4 receptor [3] = target: T1, Histamine H4 receptor; remark: listed apart in the source
Histamine H4 receptor [4] = target: T1, Histamine H4 receptor; remark: listed apart in the source
Histamine H4 receptor [5] = target: T1, Histamine H4 receptor; remark: listed apart in the source

Measured: pKi

NC(=NCc1ccc(Cl)cc1)SCCCc1cnc[nH]1 [CLOBENPROPIT]
7.30 to 8.30: all assays above

pKi: −log10 of the molar value.
